Results of unrelated studies side by side (data: NIAID ChemDB).

All rows: growth or infection tests; agent: Candida albicans; read-out: MIC

Blank or dashed fields: not listed here. Lines come from different laboratories, so protocols vary.

SMILES	strain	result
Cc1ccnc(C(N)=Nc2ccc(-c3ccc(-c4ccc(N=C(N)c5cc(C)ccn5)cc4C)o3)c(C)c2)c1		≤1 µg/mL
Cc1cc(-c2c(N=O)c(C)nn2-c2ccccc2)no1		>200 µM
O=C(Cc1ccccc1)Nc1cc([N+](=O)[O-])ccc1O		12.5 µg/mL
Clc1ccccc1N1CCN(CCCc2nc3ccc(I)cc3[nH]2)CC1	ATCC 10231	625 µg/mL
CCCCCCCCOC[n+]1cccc(NCn2cnc3ccccc32)c1	ATCC 10231	1242 µM
Cc1ccsc1/C=N/NC(=O)c1nnn(-c2ccnc3c(C(F)(F)F)cccc23)c1C		6 µg/mL
O=C(Cn1c(=O)oc2cc(C(=O)c3cccc(F)c3)c(Cl)cc21)c1ccccc1	ATCC 90028	128 µg/mL
CCCCCCCCCCOC[n+]1cccc(NCNc2ccc[n+](COCCCCCCCCCC)c2)c1	ATCC 10231	13 µM
O=C(Cn1c(=O)oc2cc(C(=O)c3ccccc3F)c(Cl)cc21)c1ccc(Br)cc1	ATCC 90028	128 µg/mL
Clc1ccc(CCC(Cn2ccnc2)c2ccc(Cl)cc2Cl)c(Cl)c1		>100 µg/mL
CCOCn1c[n+](CNC(=O)c2cccnc2)c2ccccc21	ATCC 10231	>1443 µM
FC(F)(F)c1ccccc1CN1CCN(Cn2nc(C34CC5CC(CC(C5)C3)C4)oc2=S)CC1	ATCC 753	>400 µg/mL
CCOC(=O)c1cc(C)nc2sc3c(Cl)nnnc3c12		>100 µg/mL
O=C(Cn1c(=O)oc2cc(C(=O)c3ccccc3F)c(Cl)cc21)c1ccc(Cl)cc1	ATCC 90028	128 µg/mL
Cn1nc2c(N)nnc(-c3ccccc3)c2c1-c1ccccc1	ATCC 27541	>0.62 µg/mL
CCCCCC[C@H]1OC(=O)CNC(=O)[C@@H]([C@H](C)OC)NC(=O)[C@@H](CO)NC(=O)[C@H]([C@H](C)CC)NC(=O)[C@H](CC(C)C)N(C)C(=O)[C@@H]1C		>100 µg/mL
Cc1ccsc1/C=C/C(=O)c1nnn(-c2ccnc3c(C(F)(F)F)cccc23)c1C		6 µg/mL
C[C@@]1(C=O)CC[C@H](COC2CCCCO2)[C@@]1(C)C(=O)O	2005E	56 µM
Cc1ccccc1C(Cc1ccc(Cl)cc1Cl)Cn1ccnc1		100 µg/mL
CC(=O)OC1C(=O)N2CCCS(=O)C12c1ccccc1	SH/T54	20.47 µM
O=C(Cc1ccc([N+](=O)[O-])cc1)Nc1cc([N+](=O)[O-])ccc1O		25 µg/mL
Cn1nc2c(=O)n(-c3ccc(C(=O)O)cc3)nc(-c3ccccc3)c2c1-c1ccccc1	ATCC 27541	0.15 µg/mL
CCCCCCCC[C@H]1OC(=O)CNC(=O)[C@@H]([C@H](C)O)NC(=O)[C@@H](CO)NC(=O)[C@H]([C@H](C)CC)NC(=O)[C@H](CC(C)C)N(C)C(=O)[C@@H]1C		>100 µg/mL
O=C(Cn1c(=O)oc2cc(C(=O)c3cc(F)ccc3F)ccc21)c1ccccc1	ATCC 90028	128 µg/mL
COC(/C=C/c1ccccc1)=C1/C(=O)C=C(C)C1=O	ATCC 90028	0.78 µg/mL
COC(=O)/C=C/C(=O)NCC(N)C(=O)N[C@@H](Cc1ccc(O)cc1)C(=O)O		12.5 µg/mL
C[C@@H](c1ncncc1F)[C@](O)(Cn1cncn1)c1ccc(F)cc1F	OY-2-76 fluconazole-susceptible	0.003 µg/mL
NC(=S)c1ccnc(SCc2cccc(F)c2)c1	44859	62.5 µM
COC(=O)/C=C/C(=O)NCC(N)C(=O)N[C@H](C(=O)O)C(C)C		3.12 µg/mL
COc1ccc(/C=C/C(=O)c2nnn(-c3ccnc4c(C(F)(F)F)cccc34)c2C)cc1		25 µg/mL
CCCCCCCCOC[n+]1cccc(NCn2nnc3ccccc32)c1	ATCC 10231	620 µM
COc1ccc(N2CCN(Cn3nc(C45CC6CC(CC(C6)C4)C5)oc3=S)CC2)cc1	ATCC 753	400 µg/mL
Cn1nc2c(=O)n(C)nc(-c3ccccc3)c2c1-c1ccccc1	ATCC 27541	0.31 µg/mL
CC(C)CCOC[C@H]1CC[C@@](C)(C=O)[C@]1(C)C(=O)O	2005E	462 µM
COc1ccc(C(=O)Nc2cc([N+](=O)[O-])ccc2O)cc1		12.5 µg/mL
Cc1ccc(-c2cc(-c3cn(-c4ccccc4)nc3-c3ccc(Br)s3)n(-c3ccc(C)cc3)n2)cc1		50 µg/mL
CC(/C=C/C=C(\C)C(O)C(C)C(=O)O[C@H]1C[C@@H](C)C=C2C=C[C@]3(C)O[C@@H](O)CC(=O)[C@]3(C)[C@H]21)=C\C=C\C(=O)O	AC3410	0.78 µg/mL
COc1ccc(N2C(=O)C(O)C2c2ccccc2)cc1	SH/T54	46.45 µM
Fc1ccc(N2CCN(Cn3nc(C45CC6CC(CC(C6)C4)C5)oc3=S)CC2)cc1	ATCC 753	200 µg/mL
Clc1ccc(CC(Cn2ccnc2)c2ccc(Cl)cc2Cl)c(Cl)c1		10 µg/mL
COC(=O)c1ccc(N2C(=O)C(OS(=O)(=O)c3ccc(C)cc3)C2c2ccc(OC)cc2)cc1	SH/T54	24.17 µM
COc1ccc(CC(Cn2ccnc2)c2ccc(Cl)cc2Cl)cc1		10 µg/mL
O=c1c2nn(-c3ccccn3)c(-c3ccccc3)c2c(-c2ccccc2)nn1-c1cc(Cl)ccc1Cl	ATCC 27541	<0.0024 µg/mL
CCCCCCCCCCOC[n+]1cccc(NCn2nnc3ccccc32)c1	ATCC 10231	144 µM
Cc1ccc(C2=NN(C(=O)c3ccccc3)C(c3cn(-c4ccccc4)nc3-c3ccc(Br)s3)C2)cc1		>200 µg/mL
CCCCCCCCCCCCOC[n+]1cccc(NCNc2ccc[n+](COCCCCCCCCCCCC)c2)c1	ATCC 10231	93 µM
CCCCn1nc(-c2cc(C)on2)c(N=O)c1C		>200 µM
COC(=O)/C=C/C(=O)NCC(N)C(=O)N[C@@H](C)C(=O)O		1.56 µg/mL
Fc1ccc(CCCCn2c3c(c4cc(F)ccc42)CNCC3)cc1	1378-17	0.06 µg/mL
NC(=S)c1ccnc(SCc2ccccc2F)c1	44859	>500 µM
CCS(=O)(=O)C(F)(F)C(O)(Cn1cncn1)c1ccc(F)cc1F	IFM 47601 fluconazole-resistant	>16 µg/mL
CCN(CC)CCSc1c2ccccc2nc2cccc([N+](=O)[O-])c12	CNCM 1180-79	500 µg/mL
S=c1oc(C23CC4CC(CC(C4)C2)C3)nn1CN1CCN(Cc2ccccc2)CC1	ATCC 753	>400 µg/mL
CN(C)CCCSc1c2ccccc2nc2cccc([N+](=O)[O-])c12	CNCM 1180-79	500 µg/mL
COC(=O)/C=C/C(=O)NCC(NC(=O)[C@@H](C)N)C(=O)O		>200 µg/mL
Clc1ccc(CC(Cn2ccnc2)c2ccccc2Br)cc1		10 µg/mL
COC(=O)c1ccc(N2C(=O)C(OC(C)=O)C2c2ccc(C)cc2)cc1	SH/T54	142 µM
S=c1oc(C23CC4CC(CC(C4)C2)C3)nn1CN1CCN(c2ccccc2)CC1	ATCC 753	400 µg/mL
CCCCCCCCCOC[n+]1cccc(NCNc2ccc[n+](COCCCCCCCCC)c2)c1	ATCC 10231	13.5 µM
Cc1ccc(C(=O)/C=C/c2cn(-c3ccccc3)nc2-c2ccc(Br)s2)cc1		>200 µg/mL
CCCCCC[C@H]1OC(=O)CNC(=O)[C@@H](CC)NC(=O)[C@@H](CO)NC(=O)[C@H]([C@H](C)CC)NC(=O)[C@H](CC(C)C)N(C)C(=O)[C@@H]1C		>100 µg/mL
C/C(=N\NC(=S)Nc1cccc([N+](=O)[O-])c1)c1c(O)ccc2c(C)cc(=O)oc12		15 µg/mL
CCCCn1nc(C)c(N=O)c1-c1cc(C)on1		22 µM
NC(=S)c1ccnc(SCc2c(F)cccc2[N+](=O)[O-])c1	44859	250 µM
Cc1c(C(=O)N/N=C/c2ccco2)nnn1-c1ccnc2c(C(F)(F)F)cccc12		12.5 µg/mL
Cc1ccc(C(=O)Cn2c(=O)oc3cc(C(=O)c4cccc(F)c4)c(Cl)cc32)cc1	ATCC 90028	128 µg/mL
Cc1c(O)cccc1C(=O)N[C@@H](CSc1ccccc1)[C@H](O)CN1C[C@H]2CCCC[C@H]2C[C@H]1C(=O)NC(C)(C)C	I130B	64 µg/mL
CC(C)(C)c1ccc(-c2nc3cc([N+](=O)[O-])ccc3o2)cc1		12.5 µg/mL
NC(=S)c1ccnc(SCc2ccc(Br)cc2)c1	44859	62.5 µM
NCCc1ccc([N+](=O)[O-])c2c(=O)c3ccccc3[nH]c12	CNCM 1180-79	100 µg/mL
Cc1c(C(=O)/C=C/c2ccco2)nnn1-c1ccnc2c(C(F)(F)F)cccc12		12.5 µg/mL
CCSc1ccc([N+](=O)[O-])c2c(SCC)c3ccccc3nc12	CNCM 1180-79	500 µg/mL
Cc1ccc(C2=NN(S(=O)(=O)c3ccc(C)cc3)C(c3cn(-c4ccccc4)nc3-c3ccc(Br)s3)C2)cc1		>200 µg/mL
O=C1C(OS(=O)(=O)c2ccc(Br)cc2)C(c2ccccc2)N1c1ccccc1	SH/T54	13.08 µM
CCC(C)n1ncn(-c2ccc(N3CCN(c4ccc(OC[C@H]5CO[C@](Cn6cncn6)(c6ccc(Cl)cc6Cl)O5)cc4)CC3)cc2)c1=O	ATCC 90028	0.0313 µg/mL
C[C@@]1(C=O)CC[C@H](CO)[C@@]1(C)C(=O)O	2005E	>624 µM
COC(=O)[C@H]1[C@@H]2C[C@@H](O[C@@H]3O[C@H](C)[C@@H](O)[C@H](N)[C@@H]3O)/C=C/C=C/C=C/C=C/C=C/C=C/C=C/[C@H](C)[C@@H](O)[C@H](C)[C@H](C)OC(=O)C[C@H](O)C[C@H](O)[C@@H](O)CC[C@H](O)C[C@H](O)C[C@](O)(C[C@@H]1O)O2		3.1 µM
CCCCCCCCCCCCOC[n+]1cccc(NCn2nnc3ccccc32)c1	ATCC 10231	69.6 µM
CCn1nc(C)c(N)c1-c1cc(C)on1		>200 µM
COC(=O)/C=C/C(=O)NCC(N)C(=O)N[C@@H](CC(C)C)C(=O)O		1.56 µg/mL
O=C([O-])c1cccc(C(=O)[O-])n1.c1cnc2c(c1)ccc1ccc[nH+]c12.c1cnc2c(c1)ccc1ccc[nH+]c12	ATCC 10231	200 µg/mL
CCn1nc(C)cc1-c1cc(C)on1		>200 µM
Clc1nnnc2c1sc1ncccc12		25 µg/mL
S=c1[nH]nc(C23CC4CC(CC(C4)C2)C3)o1	ATCC 753	100 µg/mL
Cc1ccc2nc(CCCN3CCN(c4ccccc4Cl)CC3)[nH]c2c1	ATCC 10231	78 µg/mL

For reference, 7 entries again:

SMILES,strain,result
CCn1nc(C)c(N)c1-c1cc(C)on1,,>200 µM
NC(=S)c1ccnc(SCc2ccc(Br)cc2)c1,44859,62.5 µM
CCOCn1c[n+](CNC(=O)c2cccnc2)c2ccccc21,ATCC 10231,>1443 µM
CCCCCCCCCCOC[n+]1cccc(NCNc2ccc[n+](COCCCCCCCCCC)c2)c1,ATCC 10231,13 µM
Cn1nc2c(=O)n(C)nc(-c3ccccc3)c2c1-c1ccccc1,ATCC 27541,0.31 µg/mL
Fc1ccc(N2CCN(Cn3nc(C45CC6CC(CC(C6)C4)C5)oc3=S)CC2)cc1,ATCC 753,200 µg/mL
Cc1ccc(C2=NN(S(=O)(=O)c3ccc(C)cc3)C(c3cn(-c4ccccc4)nc3-c3ccc(Br)s3)C2)cc1,,>200 µg/mL